The test deals with HVA calcium channels in rat DRG neurons. Particulars: 50 μM, after [R7A]Vc1.1(1-8), Vc1.1(1-8)-Amide, [Ser^3]Vc1.1(2-8) or [Ser^3]Vc1.1(1-8) exposure.

Where a name gives a salt, the structure may show the parent alone.

In the case of `NC[C@H](CC(=O)O)c1ccc(Cl)cc1` [Baclofen, R-(+)-baclofen hydrochloride], the “baclofen-sensitive IBa fraction” value came out at 10%.

Source of the values: patent US11136351B2 (priority 2016, dated 2021).
